The values below come from ChEMBL document CHEMBL4196223 (J Med Chem, 2018).

The structures appear in SMILES notation. Bounds are passed on as bounds.

This assay is filed under the species Mus musculus. The assay can be described thus: Antagonist activity at mouse alpha1beta1deltaepsilon nACHR expressed in Xenopus laevis oocytes assessed as inhibition of acetyl choline-induced membrane currents at 10 uM pre-incubated for 5 mins prior to acetyl choline pulse at -70 mV potential by two-electrode voltage clamp assay. Background: In two-electrode clamp one electrode senses voltage and the other passes current.

By inhibition is commonly meant how much of the control response was suppressed. As to `CC[C@H](C)[C@@H]1NC(=O)[C@@H]2CCCN2C(=O)[C@H](CO)NC(=O)[C@H](CCSC)NC(=O)[C@H](C)NC(=O)[C@H](CCCCN)NC(=O)[C@@H]2CSSC[C@H](NC(=O)CN)C(=O)N[C@@H](CSSC[C@@H](C(N)=O)NC1=O)C(=O)N[C@@H](CO)C(=O)N[C@@H](Cc1cnc[nH]1)C(=O)N1CCC[C@H]1C(=O)N[C@@H](C(C)C)C(=O)N2`, the inhibition was under 50%.
